Results of unrelated studies side by side (data: NIAID ChemDB).

Shared fields: tests in culture; agent: Aspergillus fumigatus

Conditions beyond the fields shown may differ between rows. ECn is the concentration giving n% inhibition of infection, replication or growth. A number after MIC or MFC names an inhibition level or a share of isolates. An empty or dashed field is not shown.

SMILES	endpoint	strain or isolate	method	setting	result
O=c1c(N2CCOCC2)c(N2CCN(S(=O)(=O)Cc3ccccc3)CC2)cnn1-c1ccccc1	MIC	ND256	broth dilution	-	25 µg/mL
Clc1ccc(-c2n[nH]c(COc3ncnc4ccccc34)n2)cc1	MIC100	MTCC 343	-	-	25 µg/mL
CCC(C)n1ncn(-c2ccc(N3CCN(c4ccc(OC[C@H]5CO[C@](Cn6cncn6)(c6ccc(Cl)cc6Cl)O5)cc4)CC3)cc2)c1=O	MIC90	-	-	-	1 µg/mL
Cc1ccc(-n2nc(-c3ccnc4nc5ccccc5n34)sc2=NC(=O)c2ccccc2)cc1	MIC	002003	-	-	15.6 µg/mL
CN[C@@H]1[C@H](O[C@@H]2OC[C@@H](O)[C@H](O)[C@H]2O)[C@@H](O)[C@H](O[C@H]2c3cc(C)c(C(=O)N[C@H](C)C(=O)O)c(O)c3-c3c(cc4c(c3O)C(=O)c3cc(OC)cc(O)c3C4=O)[C@@H]2O)O[C@@H]1C	MIC	IAM2034	-	-	3.1 µg/mL
C[C@@H]1C/C=C/C=C/C=C/C=C/[C@H](OC2O[C@H](C)[C@@H](O)[C@H](N)[C@@H]2O)CC2O[C@](O)(C[C@@H](O)C[C@H]3O[C@@H]3/C=C/C(=O)O1)C[C@H](O)[C@H]2C(=O)O	MIC50	Species complex	-	-	4 µg/mL
CC[C@@H]([C@H](C)O)n1ncn(-c2ccc(N3CCN(c4ccc(OC[C@@H]5CO[C@@](Cn6cncn6)(c6ccc(F)cc6F)C5)cc4)CC3)cc2)c1=O	MIC50	-	-	-	0.125 µg/mL
c1ccc(-c2n[nH]c(COc3ncnc4ccccc34)n2)cc1	MIC100	MTCC 343	-	-	50 µg/mL
CCCCCCCCCCC(=O)OC1CCN(CC(O)(Cn2cncn2)c2ccc(F)cc2F)CC1	MIC80	0504656	broth dilution	-	2.031 µM
CC(C)S(=O)(=O)N1CCN(c2cnn(-c3cc(F)cc(F)c3)c(=O)c2OC2CCC(F)C2)CC1	MIC	ND158	broth dilution	-	0.25 µg/mL
O=C(/C=C/c1cccc([N+](=O)[O-])c1)OC1CCN(CC(O)(Cn2cncn2)c2ccc(F)cc2F)CC1	MIC80	0504656	broth dilution	-	0.487 µM
O=C(O)CNC(=O)c1ccc(NC(=S)c2ccc(O)cc2O)cc1	MIC	-	-	-	>250 µg/mL
CC[C@@H]([C@H](C)O)n1ncn(-c2ccc(N3CCN(c4ccc(OC[C@@H]5CO[C@@](Cn6cncn6)(c6ccc(F)cc6F)C5)cc4)CC3)cc2)c1=O	MIC	-	XTT	-	0.5 µg/mL
NC(=O)N/N=C/c1ccsc1	MIC80	CBS 113.26	turbidity / absorbance	-	>250 µg/mL
CC(/C=C/C=C(\C)C(O)C(C)C(=O)O[C@H]1C[C@@H](C)C=C2C=C[C@]3(C)O[C@@H](O)CC(=O)[C@]3(C)[C@H]21)=C\C=C\C(=O)O	MIC	AC3448	-	-	50 µg/mL
C[C@H]1[C@H](O)[C@@H](C)/C=C/C=C/C=C/C=C/C=C/C=C/C=C/[C@H](O[C@@H]2O[C@H](C)[C@@H](O)[C@H](N)[C@@H]2O)C[C@@H]2O[C@](O)(C[C@@H](O)C[C@@H](O)CC[C@H](O)[C@@H](O)C[C@@H](O)CC(=O)O[C@H]1C)C[C@H](O)[C@H]2C(=O)O	MIC50	35 isolates	-	-	2 µg/mL
O=C(/C=C/c1ccccc1[N+](=O)[O-])OC1CCN(CC(O)(Cn2cncn2)c2ccc(F)cc2F)CC1	MIC80	0504656	broth dilution	-	1.949 µM
Cc1nc(OCc2nc(-c3ccc(Cl)cc3)n[nH]2)c2ccccc2n1	MIC100	MTCC 343	-	-	50 µg/mL
O=Cc1cc(-c2ccc([N+](=O)[O-])cc2)no1	MIC	Clinical isolates	-	-	>50 µg/mL
C[C@H]1[C@H](O)[C@@H](C)/C=C/C=C/C=C/C=C/C=C/C=C/C=C/[C@H](O[C@@H]2O[C@H](C)[C@@H](O)[C@H](N)[C@@H]2O)C[C@@H]2O[C@](O)(C[C@@H](O)C[C@@H](O)CC[C@H](O)[C@@H](O)C[C@@H](O)CC(=O)O[C@H]1C)C[C@H](O)[C@H]2C(=O)O	MIC	-	XTT	-	0.5 µg/mL
Oc1ccc(C(=S)Nc2ccc(F)cc2F)c(O)c1	MIC	-	-	-	125 µg/mL
C[C@@H](c1ncncc1F)[C@](O)(Cn1cncn1)c1ccc(F)cc1F	MIC80	-	-	-	2.86 µM
O=C(CCl)OC1CCN(CC(O)(Cn2cncn2)c2ccc(F)cc2F)CC1	MIC80	0504656	broth dilution	-	9.66 µM
Cc1ccc(C(C)C)cc1O	MIC	ATCC 46645	-	-	0.16 µg/mL
Oc1ccc(C(=S)Nc2ccc(F)c(Cl)c2)c(O)c1	MIC	-	-	-	62.5 µg/mL
C[C@@H](c1ncncc1F)[C@](O)(Cn1cncn1)c1ccc(F)cc1F	MIC90	28 isolates	-	-	0.12 µg/mL
C[C@H]1[C@H](O)[C@@H](C)/C=C/C=C/C=C/C=C/C=C/C=C/C=C/[C@H](O[C@@H]2O[C@H](C)[C@@H](O)[C@H](N)[C@@H]2O)C[C@@H]2O[C@](O)(C[C@@H](O)C[C@@H](O)CC[C@H](O)[C@@H](O)C[C@@H](O)CC(=O)O[C@H]1C)C[C@H](O)[C@H]2C(=O)O	MEC	Isolate AF210	-	-	2 µg/mL
O=Cc1cc(-c2ccccc2Cl)no1	EC50	Clinical isolates	-	-	>50 µg/mL
CCC(C)n1ncn(-c2ccc(N3CCN(c4ccc(OC[C@H]5CO[C@](Cn6cncn6)(c6ccc(Cl)cc6Cl)O5)cc4)CC3)cc2)c1=O	MIC50	314 isolates	-	-	0.25 µg/mL
C=C1C(=O)OCC1COC(=O)CCCC(C)C	MIC	IFO8866	-	-	25 µg/mL
Cc1c(Cl)cccc1NC(=S)c1ccc(O)cc1O	MIC	-	-	-	62.5 µg/mL
Cc1onc(-c2ccc(OCc3ccccc3)cc2)c1C=O	EC50	Clinical isolates	-	-	>50 µg/mL
C/C(=N\NC(=O)c1ccncc1)c1cc2ccccc2oc1=O	MIC	ATCC 25691	broth dilution	-	25 µg/mL
O=Cc1cc(-c2ccc(Cl)cc2)no1	EC50	Clinical isolates	-	-	21.96 µg/mL
COc1ccc(-c2n[nH]c(COc3nc(C(F)(F)F)nc4ccccc34)n2)cc1	MIC100	MTCC 343	-	-	25 µg/mL
CC(C)C(=O)OC1CCN(CC(O)(Cn2cncn2)c2ccc(F)cc2F)CC1	MIC80	0504656	broth dilution	-	2.45 µM
O=C(N=c1sc(-c2ccnc3ncnn23)nn1-c1ccc(Cl)cc1)c1ccccc1	MIC	002003	-	-	31.3 µg/mL
CCC(=O)OC1CCN(CC(O)(Cn2cncn2)c2ccc(F)cc2F)CC1	MIC80	0504656	broth dilution	-	10.1 µM
C[C@@H](c1nc(-c2ccc(C#N)cc2)cs1)[C@](O)(Cn1cncn1)c1ccc(F)cc1F	MIC50	314 isolates	-	-	0.5 µg/mL
COc1cc(-c2n[nH]c(COc3nc(C)nc4ccccc34)n2)cc(OC)c1OC	MIC100	MTCC 343	-	-	25 µg/mL
Cc1cc(O)ccc1NC(=S)c1ccc(O)cc1O	MIC	-	-	-	500 µg/mL
O=C(/C=C/c1ccccc1Cl)OC1CCN(CC(O)(Cn2cncn2)c2ccc(F)cc2F)CC1	MIC80	0504656	broth dilution	-	1.991 µM
COc1ccc(-n2nc(-c3ccn[nH]3)sc2=NC(=O)c2ccccc2)cc1	MIC	002003	-	-	14.1 µg/mL
Oc1ccc(C(=S)Nc2ccccc2Br)c(O)c1	MIC	-	-	-	125 µg/mL
CN(CCCCCOc1ccccc1)CC(O)(Cn1cncn1)c1ccc(F)cc1F	MIC80	-	-	-	37.19 µM
C[C@H]1[C@H](O)[C@@H](C)/C=C/C=C/C=C/C=C/C=C/C=C/C=C/[C@H](O[C@@H]2O[C@H](C)[C@@H](O)[C@H](N)[C@@H]2O)C[C@@H]2O[C@](O)(C[C@@H](O)C[C@@H](O)CC[C@H](O)[C@@H](O)C[C@@H](O)CC(=O)O[C@H]1C)C[C@H](O)[C@H]2C(=O)O	MIC100	ATCC 204305	broth dilution	24 h	0.5 µg/mL
Cc1ccc(NC(=S)c2ccc(O)cc2O)c(C)c1	MIC	-	-	-	62.5 µg/mL
CCC(C)n1ncn(-c2ccc(N3CCN(c4ccc(OC[C@H]5CO[C@](Cn6cncn6)(c6ccc(Cl)cc6Cl)O5)cc4)CC3)cc2)c1=O	MIC80	-	-	-	2.83 µM
C[n+]1c2cccc(O)c2cc2sc3ccccc3c21	MIC	ATCC 90906	broth dilution	-	>20 µg/mL
O=Cc1cc(-c2ccccc2Cl)on1	EC50	Clinical isolates	-	-	47.62 µg/mL

5 of the rows above, restated:

SMILES	endpoint	strain or isolate	method	setting	result
C[C@H]1[C@H](O)[C@@H](C)/C=C/C=C/C=C/C=C/C=C/C=C/C=C/[C@H](O[C@@H]2O[C@H](C)[C@@H](O)[C@H](N)[C@@H]2O)C[C@@H]2O[C@](O)(C[C@@H](O)C[C@@H](O)CC[C@H](O)[C@@H](O)C[C@@H](O)CC(=O)O[C@H]1C)C[C@H](O)[C@H]2C(=O)O	MEC	Isolate AF210	-	-	2 µg/mL
CCC(C)n1ncn(-c2ccc(N3CCN(c4ccc(OC[C@H]5CO[C@](Cn6cncn6)(c6ccc(Cl)cc6Cl)O5)cc4)CC3)cc2)c1=O	MIC90	-	-	-	1 µg/mL
O=C(CCl)OC1CCN(CC(O)(Cn2cncn2)c2ccc(F)cc2F)CC1	MIC80	0504656	broth dilution	-	9.66 µM
CCC(C)n1ncn(-c2ccc(N3CCN(c4ccc(OC[C@H]5CO[C@](Cn6cncn6)(c6ccc(Cl)cc6Cl)O5)cc4)CC3)cc2)c1=O	MIC80	-	-	-	2.83 µM
O=Cc1cc(-c2ccccc2Cl)no1	EC50	Clinical isolates	-	-	>50 µg/mL